Experimental data reported in article PMC10521975, “Species-specific cleavage of cGAS by picornavirus protease 3C disrupts mitochondria DNA-mediated immune sensing”.

Tested on: pcGAS full-length pre-cleaved by SVV 3C (Sus scrofa (porcine))
Assay: EMSA
Details: pre-incubated with WT SVV 3C, 3C:pcGAS 2:1, RT 1 h; EMSA: 50 uM ISD45, pcGAS at DNA:protein 1:1 to 1:32, RT 1 h, 1% agarose in 40 mM Tris-HCl pH 9.2; recombinant protein; protein details: N-term His6-SUMO-FLAG, C-term HA

Does “TACAGATCTACTAGTGATCTATGACTGATCTGTACATGATCTACA (double strand) [ISD45]” bind?
Result: binds more weakly

The exact form of at least one protein or probe is not confirmed. A weaker result is weaker than the reference pair of the same experiment.
